Assay results: PMC9363231, “High‐resolution analysis of individual spike peptide‐specific CD4 ^+ T‐cell responses in vaccine recipients and COVID‐19 patients” (Clinical & Translational Immunology, 2022)

Columns and labels:
Experiment in all cases: biochemical
Type in all cases: binding
HLA-DRB1*01:01 = HLA-DRB1*01:01 (Homo sapiens, UniProt P01903+P01911, A100R/D57E/F55L/F60I/F76Y/I96L/L162R/M171V/P40L/Q125E/R42F/V115G/Y59C)
HLA-DRB1*03:01 = HLA-DRB1*03:01 (Homo sapiens, UniProt P01903+P01911, A100K/A102G/A103R/A169T/F55Y/I96L/K41T/L162R/M171V/P40S/Q125H/Q178H/Q39Y/R42S/S66N/T106N/T262R/W38E/Y61H)
HLA-DRB1*04:01 = HLA-DRB1*04:01 (Homo sapiens, UniProt P01903+P01911, A100K/A169T/F76Y/I96L/K127E/L162R/M171V/N62H/P40V/Q125Y/R42H/S133A/S149N/S66Y/V115G/V209L/W38E)
HLA-DRB1*04:05 = HLA-DRB1*04:05 (Homo sapiens, UniProt P01903+P01911, A100R/A169T/D86S/F76Y/I96L/K127E/L162R/M171V/N62H/P40V/Q125Y/R42H/S133A/S149N/S66Y/V115G/V209L/W38E)
HLA-DRB1*07:01 = HLA-DRB1*07:01 (Homo sapiens, UniProt P01903+P01911, A100R/A102G/A103Q/D57E/D86V/E43K/F76Y/K127E/L162R/M171V/P40G/Q125H/Q99D/R33Q/R42Y/R54Q/S133A/S66F/T210M/V115G/Y107V/Y59L/Y89S)
HLA-DRB1*08:02 = HLA-DRB1*08:02 (Homo sapiens, UniProt P01903+P01911, A100R/A103L/A169T/F76Y/H45Y/I96F/K41T/L162R/M171V/P40S/Q125H/Q178H/Q39Y/Q99D/R218S/R42G/S66Y/V115G/W38E)
HLA-DRB1*09:01 = HLA-DRB1*09:01 (Homo sapiens, UniProt P01903+P01911, A100R/A103E/D57H/D86V/F55Y/F60I/F76Y/I96F/K127E/L162R/M171V/P40D/Q125H/Q99R/R33Q/R42F/S133A/S66N/T210M/V115G/W38K/Y107V/Y59G/Y89S)
HLA-DRB1*11:01 = HLA-DRB1*11:01 (Homo sapiens, UniProt P01903+P01911, A100R/A169T/A87E/I96F/K41T/L162R/M171V/P40S/Q125H/Q178H/Q39Y/Q99D/R42S/S66Y/T262R/V115G/W38E)
HLA-DRB1*12:01 = HLA-DRB1*12:01 (Homo sapiens, UniProt P01903+P01911, A100R/A169T/D57E/D86V/F55L/H45Y/K41T/L162R/M171V/P40S/Q125H/Q178H/Q39Y/Q99D/R42G/S66L/T262R/V114A/V67L/W38E/Y59H/Y61H/Y89S)
HLA-DRB1*13:02 = HLA-DRB1*13:02 (Homo sapiens, UniProt P01903+P01911, A100E/A169T/K41T/L162R/M171V/P40S/Q125H/Q178H/Q39Y/Q99D/R42S/S66N/T262R/V115G/W38E/Y61H)

With CC[C@H](C)[C@H](NC(=O)[C@H](CCCNC(=N)N)NC(=O)[C@H](CCCCN)NC(=O)[C@H](CCCNC(=N)N)NC(=O)[C@H](CC(N)=O)NC(=O)[C@H](Cc1c[nH]c2ccccc12)NC(=O)[C@H](C)NC(=O)[C@@H](N)Cc1ccc(O)cc1)C(=O)N[C@@H](CO)C(=O)N[C@@H](CC(N)=O)C(=O)N[C@@H](CS)C(=O)N[C@H](C(=O)N[C@@H](C)C(=O)N[C@@H](CC(=O)O)C(=O)N[C@@H](Cc1ccc(O)cc1)C(=O)O)C(C)C [compound 71] the IC50 (HLA-DRB1*01:01) was 22 µM, the IC50 (HLA-DRB1*03:01) was > 40 µM and the IC50 (HLA-DRB1*04:01) was 0.865 µM. For the same compound, the IC50 (HLA-DRB1*04:05) was 3.81 µM, the IC50 (HLA-DRB1*07:01) was > 40 µM and the IC50 (HLA-DRB1*08:02) was 0.852 µM. The IC50 (HLA-DRB1*09:01) was > 40 µM, the IC50 (HLA-DRB1*11:01) was 0.037 µM and the IC50 (HLA-DRB1*12:01) was 3.67 µM. For the same compound, the IC50 (HLA-DRB1*13:02) was 12.7 µM.
